Results of unrelated studies side by side (data: NIAID ChemDB).

Common to all: whole-cell or culture tests; agent: Mycobacterium tuberculosis

MIC bound: limit read from a one-dose screen. Percent inhibition refers to the dose given; in toxicity tests it is the harm to the cells. Conditions beyond the fields shown may differ between rows. Blank or dashed fields: not listed here. A number after MIC or MFC names an inhibition level or a share of isolates.

smiles,mutations,measure,strain or isolate,dose,read by,result
CCNCC(=O)O,-,MIC,H37Rv,-,-,>100 µg/mL
CO[C@@H]1[C@@H]([C@@]2(C)O[C@@H]2CC=C(C)C)[C@@]2(CC[C@@H]1O)CO2,-,MIC,H37Rv,-,BACTEC,≥128 µg/mL
CO[C@H]1/C=C/O[C@@]2(C)Oc3c(C)c(O)c4c(O)c(c5c(c4c3C2=O)NC2(CCN(CC(C)C)CC2)N=5)=NC(=O)/C(C)=C\C=C\[C@H](C)[C@H](O)[C@@H](C)[C@@H](O)[C@@H](C)[C@H](OC(C)=O)[C@@H]1C,-,MIC,28 (rifampicin-susceptible),-,-,≤0.062 µg/mL
CCCCn1c(-c2ccc(O)cc2)cs/c1=N\NC(=O)COc1cnccn1,-,MIC,H37Rv,-,-,16 µg/mL
COc1ccc2cc3[n+](cc2c1O)CCc1cc2c(cc1-3)OCO2,-,MIC,H37Rv,-,BACTEC,≥12.5 µg/mL
COc1c(N2CCNC(C)C2)c(F)cc2c(=O)c(C(=O)O)cn(C3CC3)c12,-,MIC,Strain 40,-,-,0.125 µg/mL
CCOC(=O)C(NC(=O)CC)(N1CCN(c2cc3c(cc2F)c(=O)c(C(=O)O)cn3C2CC2)CC1)C(F)(F)F,-,inhibition,H37Rv,6.25 µg/mL,resazurin,100%
C[C@H]1COc2c(N3CCN(C)CC3)c(F)cc3c(=O)c(C(=O)O)cn1c23,-,MIC,7R,-,-,0.5 µg/mL
Br.CCN(CC)CCS(=O)(=O)CCCBr,-,MIC,H37Rv,-,-,>100 µg/mL
CCOC(=O)c1c(C)[nH]c(C(c2ccccc2)c2[nH]c(C)c(C(=O)OCC)c2C)c1C,-,MIC bound,H37Rv,-,BACTEC,>12.5 µg/mL
COc1ccccc1CCNCCNC12CC3CC(CC(C3)C1)C2,-,MIC,-,-,-,25 µM
O=C(COc1cnccn1)N/N=c1\scc(-c2ccc(O)cc2)n1-c1ccc(Cl)cc1,-,MIC,H37Rv,-,-,24 µg/mL
CC(=O)c1ccc(OCC(=O)O)cc1,-,MIC,H37Rv,-,-,>100 µg/mL
CC[C@H]1OC(=O)[C@H](C)[C@@H](O[C@H]2C[C@@](C)(OC)[C@@H](O)[C@H](C)O2)[C@H](C)[C@@H](O[C@@H]2O[C@H](C)C[C@H](N(C)C)[C@H]2O)[C@](C)(OC)C[C@@H](C)C(=O)[C@H](C)[C@@H](O)[C@]1(C)O,-,MBC,ATCC 35826,-,-,>8 µg/mL
O=C(O)c1cc(I)cc(I)c1I,-,MIC,H37Rv,-,-,100 µg/mL
O=c1nc(SCc2ccc(Cl)cc2[N+](=O)[O-])c2[nH]cnc2[nH]1,-,MIC90,H37Rv,-,-,>6.25 µg/mL
CO[C@H]1/C=C/O[C@@]2(C)Oc3c(C)c(O)c4c(O)c(c(/C=N/N5CCN(C)CC5)c(O)c4c3C2=O)NC(=O)/C(C)=C\C=C\[C@H](C)[C@H](O)[C@@H](C)[C@@H](O)[C@@H](C)[C@H](OC(C)=O)[C@@H]1C,-,MIC,9135,-,-,≥2 µg/mL
Cc1ccc(Sc2ncccn2)cc1,-,MIC90,H37Rv,-,-,>6.25 µg/mL
NNC(=O)c1ccncc1,Rifampicin- and isoniazid-resistant,MIC,Clinical isolate 8600,-,broth dilution,>10 µM
CO[C@H]1/C=C/O[C@@]2(C)Oc3c(C)c(O)c4c(O)c(c(/C=N/N5CCN(C6CCCC6)CC5)c(O)c4c3C2=O)NC(=O)/C(C)=C\C=C\[C@H](C)[C@H](O)[C@@H](C)[C@@H](O)[C@@H](C)[C@H](OC(C)=O)[C@@H]1C,-,MIC,Isolate 920492 rifampicin-resistant,-,-,>64 µg/mL
CCCCN1C(=O)N(c2ccc(OCC)cc2)C2N(CCCC)C1C(C)(C)C2(C)C,-,inhibition,H37Rv,12.5 µg/mL,BACTEC,44%
COC(=O)c1nn(-c2ccc([N+](=O)[O-])cc2)c(=O)[nH]1,-,MIC,H37Rv,-,-,>100 µg/mL
O=C1CCCN1CCCNCCNCCc1ccccc1F,-,MIC,-,-,-,50 µM
Clc1ccc(Sc2nc(Cl)nc3nc[nH]c23)cc1,-,MIC90,H37Rv,-,-,>6.25 µg/mL
CCN(CC)CCNc1ccc(N)c2sc3ccccc3c(=O)c12,-,inhibition,H37Rv,12.5 µg/mL,BACTEC,71%
Cc1ccc(Cl)cc1S(N)(=O)=O,-,MIC,H37Rv,-,-,>100 µg/mL
CC1=C2C(=O)[C@H]3[C@@H](CC=C4C[C@@H](O)CC[C@@]43C)[C@@H]2CC[C@]12O[C@@H]1C[C@H](C)CN[C@H]1[C@H]2C,-,MIC,H37Rv,-,BACTEC,64 µg/mL
C=C(NC(=O)c1csc(-c2nc3c(cc2O)-c2nc(cs2)C(=O)N[C@@H]([C@@H](C)O)C(=O)N/C(=C(\C)OC)c2nc(cs2)C(=O)N[C@@H]2c4nc(cs4)C(=O)N[C@@H](COC(=O)c4c5c6c(cccc6n4O)COC(=O)[C@@H](O[C@H]4C[C@](C)(O)[C@H](N(C)C)[C@H](C)O4)[C@H]2OC5)c2nc-3cs2)n1)C(N)=O,-,MIC,Clinical isolate 30425,-,broth dilution,≤2.5 µM
CC(C)c1ccc2c(c1)CC[C@H]1[C@](C)(CNCCNCc3ccc(F)cc3)CCC[C@]21C,-,MIC,-,-,-,50 µM
CC(=O)O[C@H]1C(=O)[C@@]2(C)C([C@H](OC(=O)c3ccccc3)[C@]3(O)CC(OC(=O)C(OC(=O)CCCC(=O)NCCCN(C)C)C(NC(=O)c4ccccc4)c4ccccc4)C(C)=C1C3(C)C)C1(OC(C)=O)COC1C[C@@H]2O.Cl,-,inhibition,H37Rv,12.5 µg/mL,BACTEC,17%
C1=C(CCNCCNCC2CCCO2)CCCC1,-,MIC,-,-,-,50 µM
NC(=S)NNC(=S)S,-,MIC,CS-R,-,-,12.5 µg/mL
CC[C@H]1OC(=O)[C@H](C)[C@@H](O[C@H]2C[C@@](C)(OC)[C@@H](O)[C@H](C)O2)[C@H](C)[C@@H](O[C@@H]2O[C@H](C)C[C@H](N(C)C)[C@H]2O)[C@](C)(O)C[C@@H](C)C(=O)[C@H](C)[C@@H](O)[C@]1(C)O,-,MBC,H37Rv,-,-,>8 µg/mL
c1cncc(C2=NCCC2)c1,-,MIC,H37Rv,-,-,>100 µg/mL
CCCCCCCCCCCCCCCCc1c(C(=O)OC)nc(N)[nH]c1=O,-,inhibition,H37Rv,12.5 µg/mL,BACTEC,0%
Cc1cccc(Sc2ncccn2)c1,-,MIC90,H37Rv,-,-,>6.25 µg/mL
CCOC(=O)c1cc(NC(C)=O)cn1C,-,inhibition,H37Rv,6.25 µg/mL,resazurin,-3%
CC(=O)Oc1c(C)cccc1C(=O)O,-,MIC,H37Rv,-,-,100 µg/mL
COc1ccc(OC)c(Sc2ccncc2)c1,-,MIC,H37Ra,-,-,>12.8 µg/mL
O=C(O)c1cccc2c1C(=O)c1ccccc1C2=O,-,MIC,H37Rv,-,-,100 µg/mL
C[C@H]1C[C@H](N)CN1c1cc2c(cc1F)c(=O)c(C(=O)O)cn2-c1ccc(F)cc1F,-,MBC,ATCC 35827,-,-,8 µg/mL
Cc1ccc(CSc2ncnc3nc[nH]c23)cc1,-,MIC90,H37Rv,-,-,>6.25 µg/mL
Nc1nc2[nH]c(=O)[nH]c2c(=O)[nH]1,-,inhibition,H37Rv,12.5 µg/mL,BACTEC,0%
CO/C(C)=C1/NC(=O)[C@H]([C@@H](C)O)NC(=O)c2csc(n2)-c2cc(OC)c(-c3nc(C(=O)NCCCN4CCOCC4)cs3)nc2-c2csc(n2)[C@@H]2COC(=O)c3c4c5c(cccc5n3O)COC(=O)[C@@H](O[C@H]3C[C@](C)(O)[C@H](N(C)C)[C@H](C)O3)[C@@H](OC4)[C@H](NC(=O)c3csc1n3)c1nc(cs1)C(=O)N2,Multidrug-resistant,MIC,Clinical isolate 565,-,broth dilution,≤1 µM
NC1CCN(c2nc3c(cc2F)c(=O)c(C(=O)O)cn3-c2ccc(F)cc2F)C1,-,MIC90,MDR,-,-,>8 µg/mL
Fc1ccccc1CCNCCNCCc1ccccc1F,-,MIC,-,-,-,25 µM
C=C1C(=O)C23C(O)CC4(C)C5CCCC4(C(O)OC5)C2C(OC(C)=O)CC1C3O,-,MIC,H37Rv,-,BACTEC,≥12.5 µg/mL
CC(Cc1ccc(Cl)cc1)NCCNCCCCc1ccccc1,-,MIC,-,-,-,50 µM
CC(=O)NC[C@H]1CN(c2ccc(N3CCOCC3)c(F)c2)C(=O)O1,-,MIC,5S,-,-,0.5 µg/mL
COc1ccc(C(=O)O)cc1OC,-,MIC,H37Rv,-,-,>100 µg/mL
CC(C)=CCC1=C(O)[C@@](O)(CC=C(C)C)C(=O)C(C(=O)CC(C)C)=C1O,-,MIC bound,H37Rv,-,BACTEC,>12.8 µg/mL
c1ccc(OCCOc2ccccc2)cc1,-,MIC,H37Rv,-,-,100 µg/mL
CC(=O)NC[C@H]1CN(c2ccc(N3CCOCC3)c(F)c2)C(=O)O1,-,MIC,Strain 34,-,-,0.25 µg/mL
O=c1oc2ccccc2c(O)c1C=Nc1ccccc1,-,inhibition,H37Rv,12.5 µg/mL,BACTEC,26%
NS(=O)(=O)c1cc([N+](=O)[O-])ccc1Cl,-,MIC,H37Rv,-,-,100 µg/mL
O=c1nc(SCc2cccnc2)c2[nH]cnc2[nH]1,-,MIC90,H37Rv,-,-,>6.25 µg/mL
CO/C(C)=C1/NC(=O)[C@H]([C@@H](C)O)NC(=O)c2csc(n2)-c2cc(O)c(-c3nc(C(=O)NCCCN4CCOCC4)cs3)nc2-c2csc(n2)[C@@H]2COC(=O)c3c4c5c(cccc5n3O)COC(=O)[C@@H](O[C@H]3C[C@](C)(O)[C@H](N(C)C)[C@H](C)O3)[C@@H](OC4)[C@H](NC(=O)c3csc1n3)c1nc(cs1)C(=O)N2,Isoniazid-resistant,MIC,Clinical isolate 7791,-,broth dilution,≤2.5 µM
CCOC(=O)c1nnc(C)[nH]c1=O,-,inhibition,H37Rv,12.5 µg/mL,BACTEC,0%
C/C=C1\N=C(c2ccccc2)OC1=O,-,MIC,H37Rv,-,-,100 µg/mL
NNC(=O)c1ccncc1,-,MIC,98596,-,-,≥0.2 µg/mL
O=c1cc(-c2ccccc2)ss1,-,MIC,H37Rv,-,BACTEC,≥12.5 µg/mL
O=C(O)c1ccccc1C(=O)c1ccc(O)cc1,-,MIC,H37Rv,-,-,>100 µg/mL
O=C1C=C(Nc2ncccn2)c2ccccc2C1=O,-,MIC,H37Rv,-,resazurin,3.13 µg/mL
CCOC(=O)C(CN1CCCCC1)N1CCCCC1.Cl,-,MIC,H37Rv,-,-,>100 µg/mL
COC1OC(CO)C(O)C(O)C1N1C(=O)c2ccccc2C1=O,-,MIC bound,H37Rv,-,BACTEC,>12.5 µg/mL
CC(=O)Nc1cccc2ccc(O)cc12,-,MIC,H37Rv,-,-,100 µg/mL
CCCCCCCCCCCNCCNCCCO,-,MIC,-,-,-,50 µM
CCOc1ccc(-n2c(-c3ccc(F)cc3)cs/c2=N\NC(=O)COc2cnccn2)cc1,-,MIC,H37Rv,-,-,10.2 µg/mL
CC(C)c1ccc2c(c1)CC[C@H]1[C@](C)(CNCCNC[C@@H](C)O)CCC[C@]21C,-,MIC,-,-,-,50 µM
CO[C@H]1/C=C/O[C@@]2(C)Oc3c(C)c(O)c4c(O)c(c(/C=N/N5CCN(C)CC5)c(O)c4c3C2=O)NC(=O)/C(C)=C\C=C\[C@H](C)[C@H](O)[C@@H](C)[C@@H](O)[C@@H](C)[C@H](OC(C)=O)[C@@H]1C,-,MIC,Clinical isolate 13923,-,broth dilution,≤0.1 µM
C[C@@H]1CN(c2c(F)c(N)c3c(=O)c(C(=O)O)cn(C4CC4)c3c2F)C[C@H](C)N1,-,MBC,ATCC35838,-,-,0.6 µg/mL
Cc1cccc(S(=O)(=O)c2ccccc2)c1,-,MIC,H37Rv,-,-,>100 µg/mL
CCOC(=O)C1=C(Nc2ccccc2)OC/C1=N/NC(=O)Cc1ccccc1,-,inhibition,H37Rv,12.5 µg/mL,BACTEC,2%
Nc1cc(C(=O)O)ccc1O,-,MIC,H37Rv,-,-,>100 µg/mL
CCCCn1c(-c2ccccc2)cs/c1=N\NC(=O)COc1cnccn1,-,MIC,H37Rv,-,-,9.2 µg/mL
NC(N)=NC(N)=Nc1ccc([N+](=O)[O-])cc1,-,MIC,H37Rv,-,-,50 µg/mL
CC(CNCCNCCC(c1ccccc1)c1ccccc1)c1ccccc1,-,MIC,-,-,-,50 µM
O=C(OCCN1CCN(c2ccccc2)CC1)c1ccccc1,-,MIC,H37Rv,-,-,>100 µg/mL
Cc1cccc(CSc2ccccn2)c1,-,MIC90,H37Rv,-,-,>6.25 µg/mL

A second listing of 4 rows from above:

smiles | mutations | measure | strain or isolate | dose | read by | result
O=c1cc(-c2ccccc2)ss1 | - | MIC | H37Rv | - | BACTEC | ≥12.5 µg/mL
CO[C@H]1/C=C/O[C@@]2(C)Oc3c(C)c(O)c4c(O)c(c5c(c4c3C2=O)NC2(CCN(CC(C)C)CC2)N=5)=NC(=O)/C(C)=C\C=C\[C@H](C)[C@H](O)[C@@H](C)[C@@H](O)[C@@H](C)[C@H](OC(C)=O)[C@@H]1C | - | MIC | 28 (rifampicin-susceptible) | - | - | ≤0.062 µg/mL
NNC(=O)c1ccncc1 | Rifampicin- and isoniazid-resistant | MIC | Clinical isolate 8600 | - | broth dilution | >10 µM
CCNCC(=O)O | - | MIC | H37Rv | - | - | >100 µg/mL